One sequence from article PMC7077220 can be followed below.

In the series the test system is Sumo-nsp10. The experiment in a line: EMSA. The note with it: 2 mM Mg2+; recombinant protein; protein details: N-terminal SUMO; label: 3' FAM on top strand. For orientation: A gel shift assay detects complexes by their altered migration in electrophoresis.

Construct, isoform or probe ends are uncertain for at least one entry. At least one verdict rests on a figure or table, not on a statement of the authors.

Turning to “TTTTTTTTTTCGAGCACCGCTGCGGCTG / GGTGCAGCCGCAGCGGTGCTCG [EMSA partially dsDNA]”, the binding result is reported as “binds”.
